Results reported in PMC3866116 (PLoS ONE, 2013).

Test system: HCV subgenomic replicon RNA of genotype 1b strain N (Huh7/Rep-Feo cells)
Assay: Luciferase assay in HCV subgenomic replicon cell line Huh7/Rep-Feo
Type: cell-based, hepatitis C virus
Conditions: strain N (1b)
Description: The Huh7/Rep-Feo cell line, which harbors the subgenomic replicon RNA composed of HCV IRES, the gene of the fusion protein consisting of neomycin phosphotransferase and firefly luciferase, EMCV IRES and a nonstructural gene of genotype 1b strain N in order in Huh7 cell line, was previously established. Thus, the luciferase activity corresponds to the level of HCV RNA replication. The cell line was maintained in Dulbecco's modified Eagle medium containing 10% fetal calf serum and 0.5 mg/mL G418 and cultured in absence of G418 when they were treated with compounds. The Lunet/Con1LUN Sb #26 cell line, which harbors the subgenomic replicon RNA of the Con1 strain (genotype 1b), was described previously. The OR6 cell line, which harbors the full genomic replicon RNA of the O strain (genotype 1b), was described previously. The HCV replicon cell line derived from the genotype 2a strain JFH1 was described previously. The viral RNA derived from the plasmid pJFH1 was transcribed and introduced into Huh7OK1 cells according to the method of Wakita et al.. The virus was amplified by the several times passages. The cells were infected with the virus at a multiplicity of infection (moi) of 1 and then treated with each compound at 24 h post-infection. The culture supernatants were harvested 72 h post-treatment to estimate the viral RNA as described below.
The replicon cells were seeded at 2×10^4 cells per well in a 48-well plate 24 h before treatment. […] The resulting cells were harvested 72 h post-treatment and lysed with cell culture lysis reagent (Promega, Madison, WI). The luciferase activity of each cell lysate was estimated using a luciferase assay system (Promega). The resulting luminescence was detected by a Luminescencer-JNR AB-2100 (ATTO, Tokyo, Japan).

Row | Compound | SI, selectivity index (CC50/EC50)
1 | COC(=O)CCc1ccc(O)c(O)c1 [Compound 12, Dihydrocaffeic acid methyl ester] | 1.8
2 | COC(=O)/C=C/c1ccc(O)c(O)c1 [Compound 7, caffeic acid methyl ester] | 4.2
3 | O=C(C=Cc1ccccc1)OCCc1ccccc1 [Compound 4, Cinnamic acid phenethyl ester] | >3.7
4 | COc1cc(/C=C/C(=O)O)ccc1O [Compound 3, ferulic acid] | >4.5
